# Results as given in PubChem BioAssay AID651724 (National Center for Advancing Translational Sciences (NCATS), 2012).
# The list shows a part of the results, in another mix than the full data. Activity calls are given as the source filed them. Cut-off read from the data, not from the text of the source: active = activity change below about -65%; inconclusive = mostly about -30% to -63%; inactive = weaker than that.
# System: CtBP / adenovirus E1A interaction (AlphaScreen)
# Test: qHTS Assay for Inhibitors of the CtBP/E1A Interaction
# Settings: AlphaScreen GST-E1A/His-CtBP binding, 1536-well; hits give low values
# Description: Carboxyl-terminal binding protein (CtBP) is a co-repressor for many transcription factors. […] Our studies have shown that CtBP is overexpressed in multiple human cancers, including lung, breast, and head and neck cancers. In particular, it is over-expressed in 50% of primary lung cancer and 90% of metastatic lesions. CtBP suppresses epithelial-specific genes as well as genes critical for apoptosis, providing the underlying molecular mechanism for its role in tumorigenesis. […] Based on the above data, we hypothesize that 1) CtBP suppresses the pro-apoptotic and epithelial genes, therefore overexpressed CtBP in human cancer cells increases EMT and cancer survival; 2) decreasing CtBP's function represents a targeted therapy for lung cancer and potentially multiple cancer types. As a co-repressor, CtBP binds to E1A and other transcription factors through a conserved peptide motif to carry out its action. Inhibiting this interaction using small molecules can potentially serve as effective cancer therapeutics.
# To this end, we have developed a homogenous AlphaScreen assay targeting the CtBP/E1A interaction. We performed a large scale HTS of the Molecular Libraries Small Molecule Repository (MLSMR) to identify inhibitors of the CtBP/E1A interaction as potential anti-cancer therapeutics. Compounds identified can also be used as chemical probes to better understand the biological functions of CtBP.
# NIH Chemical Genomics Center [NCGC]
# NIH Molecular Libraries Probe Centers Network [MLPCN]
# Assay Submitter (PI): Rui Zhao, University of Colorado Denver
# The first step of the 5uL AlphaScreen assay is to dispense assay buffer (50 mM Tris, pH 8.0, 300 mM NaCl, 0.05% BSA, 0.02% Tween 20, 1 mM TCEP) into a Greiner 1536 white solid bottom microtiter plate (789175-F). Five microliters is added to Column 1, 4 uL is added to Column 2 and 3 uL is added to Columns 3 through 48. A 5X protein solution (125 nM GST-E1A protein + 125 nM His-tagged CtBP protein) is mixed and 1 uL is dispensed to Columns 3-48. Using a 1536 pintool, 23 nL of compound is transferred to the assay plate and the plate is incubated with a lid at 37 deg C in the dark for two hours. A solution of 5X AlphaScreen beads is mixed (50 ug/mL Glutathione linked donor beads + Nickel chelated acceptor beads) and 1 uL is dispensed to Columns 2-48. The assay plate is incubated for one hour, with a lid, at 37 deg C in the dark. The plate is read using a Perkin Elmer Envision using an AlphaScreen protocol.
# % is set by controls: 0 for no effect and ±100 for the full control effect.
row,SMILES,activity change
1,CN(C)C(=O)OCCc1n(C)cc[n+]1C,inactive: 10.8%
2,CC(C)=N/N=C(\N)N[N+](=O)[O-],inactive: 3.09%
3,CC(C)c1nc(Nc2ccccc2)n(P(=O)(N(C)C)N(C)C)n1,inactive: 4%
4,c1cc(-c2nn[nH]n2)ccc1-c1nn[nH]n1,inactive: -13.4%
5,CC1CCN(C(=O)Oc2c(Cl)cc(Cl)c3cccnc23)CC1,inactive: 8.16%
6,CC(C)(C)c1ccc(OP(C)(=O)O)cc1,inactive: 4.72%
7,Nc1ccc([As](=O)(O)c2ccc(N)cc2)cc1,inactive: 5.08%
8,COc1ccccc1OP(C)(=O)Nc1ccccc1Br (configuration not stated),inactive: 6.4%
9,CP(=O)(Nc1ccc(Cl)cc1)Oc1ccc(F)cc1 (configuration not stated),inactive: 6.97%
10,CCN(/C(=N/P(=O)(N1CCOCC1)N1CCOCC1)N1CCOCC1)c1ccc(OC)cc1,inactive: 4.92%
11,O=C(OCCCN1CCCC1)C(O)(c1ccccc1)C1CCCCC1 (configuration not stated),inactive: -6.55%
12,COc1ccccc1OP(C)(=O)Nc1c(C)n(C)n(-c2ccccc2)c1=O (configuration not stated),inactive: -0.541%
13,O=[N+]([O-])c1cccc2n[nH]nc12,inactive: 10.5%
14,CC(=O)N1C2C3N(C(C)=O)C1C1N(C(C)=O)C(C(N1C(C)=O)N3C(C)=O)N2C(C)=O,inactive: 9.27%
15,CCc1nc2c(n1)c1c(non1O)c1c2no[n+]1[O-],inactive: -2.23%
16,O=[N+]([O-])c1cc([N+](=O)[O-])c(CCNc2ccccc2)c([N+](=O)[O-])c1,inactive: -14.4%
17,CCc1ccc(OP(C)(=O)Nc2cccnc2)cc1 (configuration not stated),inactive: 2.4%
18,CP(=O)(Oc1ccccc1)N1CCOC1=O (configuration not stated),inactive: 3.62%
19,Cc1ccc(NP(=O)(Oc2ccccc2)Oc2ccccc2)nc1,inactive: 7.47%
20,COc1ccc(OP(C)(=O)Nc2ccc(Br)cc2)cc1 (configuration not stated),inactive: 11.2%
21,COc1ccc(C2=NCC(CBr)S2)cc1 (configuration not stated),inactive: 4.87%
22,CCN(CC)CC(O)COC(=O)C(O)(c1ccccc1)C1CCCCC1 (configuration not stated),inactive: 2.47%
23,COC(=O)C1(C)COP(=O)(Nc2ccccc2)OC1 (configuration not stated),inactive: -0.34%
24,CC(C)(C)C(=O)NC(Sc1ccncn1)C(Cl)(Cl)Cl (configuration not stated),inactive: 3.71%
25,CCOC(=O)c1ccc(NP(C)(=O)Oc2ccc(Cl)cc2)cc1 (configuration not stated),inactive: -4.9%
26,CP(=O)(OC12CC3CC(CC(C3)C1)C2)OC12CC3CC(CC(C3)C1)C2,inactive: -3.81%

row,SMILES,activity change
1,Nc1ccc2c(ccc3cccnc32)n1.O=[N+]([O-])c1cc([N+](=O)[O-])c(O)c([N+](=O)[O-])c1,inactive: -23.6%
2,O=P1(N(CCCl)CCCl)OCCCS1 (configuration not stated),inactive: 1.51%
3,CCN(N=Nc1nonc1N)c1nonc1N,inactive: 4.87%
4,CP(=O)(OCCOc1ccccc1)OCCOc1ccccc1,inactive: -13.4%
5,CCCCCCCCCCCCCCCC1C[N+](C)(C)CCOP(C)(=O)O1 (configuration not stated),inactive: 0%
6,CP(=O)(Nc1ccc(Cl)cc1Cl)Oc1ccccc1 (configuration not stated),inactive: 0%
7,Cc1ccc(NP(=O)(Oc2ccccc2F)Oc2ccccc2F)nc1,inactive: 0.601%
8,CN(C(=O)Cc1ccc(Cl)c(Cl)c1)[C@H]1CCCC[C@@H]1N1CCCC1,inactive: 6.03%
9,COc1ccccc1OP(C)(=O)Nc1ccc(C)c(C)c1 (configuration not stated),inactive: 0.951%
10,CCOP(=O)(Nc1ccccc1)OCC,inactive: -2.74%
11,Cc1cc(SC(NC(=O)c2ccc(F)cc2)C(Cl)(Cl)Cl)ncn1 (configuration not stated),inactive: 6.53%
12,COc1ccc(OP(C)(=O)Nc2ccccc2Br)cc1 (configuration not stated),inactive: -2.6%
13,CCCC1OP(N)(=O)OCC1CC (configuration not stated),inactive: 11.1%
14,O=C(O)c1ccccc1[As](=O)(O)O,inactive: -5.38%
15,CC(=O)Nc1ccc([As](=O)(O)O)cc1,inactive: -1.5%
16,Cc1cc(C)cc(OP(C)(=O)Nc2cccc(C(F)(F)F)c2)c1 (configuration not stated),inactive: -21.9%
17,CN(C)P(=O)(N(C)C)n1c(Nc2ccccc2)nnc1-c1ccccc1,inactive: 1.75%
18,O=P(Nc1nc2ccc(Cl)cc2s1)(c1ccccc1)c1ccccc1,inactive: 6.63%
19,COc1ccccc1OP(C)(=O)Nc1ccc(C)cc1C (configuration not stated),inactive: -0.382%
20,CP(=O)(Nc1ccccn1)Oc1ccccc1 (configuration not stated),inactive: 1.87%
21,CCc1ccc(OP(C)(=O)O)cc1,inactive: -0.988%
22,O=[N+]([O-])C1C(O)C(O)C([N+](=O)[O-])C(O)C1O (configuration not stated),inactive: 1.92%
23,CC(C)CC(=O)NC(Sc1ccc(Cl)cc1)C(Cl)(Cl)Cl (configuration not stated),inactive: 0.696%
24,O=[N+]([O-])c1cc([N+](=O)[O-])c(Nc2ccccn2)c([N+](=O)[O-])c1,inactive: 1.14%
25,Cc1c(NP(C)(=O)Oc2ccc(C(C)C)cc2)c(=O)n(-c2ccccc2)n1C (configuration not stated),inactive: 6.59%
26,Nc1cc(N)c2nonc2c1[N+](=O)[O-],inactive: -9.17%
